According to patent publication US20170224780A1 (priority 2014, published 2017):

System: ovaries from 12-day-old neonatal mice

NP(=O)(O)N(CCCl)CCCl
numbers of primordial follicles, PM alone compared with untreated ovaries (PM for 4 hours, then medium alone, p<0.01, FIG. 7): significantly reduced numbers
ratio of growing to dormant follicles, PM alone (day 4 and 7, compared among treatment groups, FIG. 8): greatest
